The data set deals with Nc1ncnc2c1ncn2[C@@H]1O[C@H](COP(=O)(O)OP(=O)(O)OP(=O)(O)O)[C@@H](O)[C@H]1O. Nature of the data set: purified protein.

Our source for the Km values is article PMC8879444, “Neofunctionalization of Glycolytic Enzymes: An Evolutionary Route to Plant Parasitism in the Oomycete Phytophthora nicotianae” (Microorganisms, 2022).

With “FKI (PPTG_18886) (Phytophthora nicotianae P1569)”, the Km (commonly the substrate concentration at which the rate is half of its maximum) (pH 8.5, phosphate buffer, co-substrate fructose, pH 8.5) was found to be 1000 ± 50 µM. Consider “GKII (PPTG_18927) (Phytophthora nicotianae P1569)”, for which, where the note is “pH 7.5, phosphate buffer, co-substrate glucose, pH 7.5”, the Michaelis-Menten constant (Km) amounted to 500 ± 50 µM.
